The record followed here is patent US12252481B2, “Anti-viral compounds” (Aligos Therapeutics, Inc., priority 2021, dated 2025).

The chains behind the UniProt entries cited, without tags or fusion partners. Residues count along the entry.
UniProt P03303, 1538-1719 limits assumed: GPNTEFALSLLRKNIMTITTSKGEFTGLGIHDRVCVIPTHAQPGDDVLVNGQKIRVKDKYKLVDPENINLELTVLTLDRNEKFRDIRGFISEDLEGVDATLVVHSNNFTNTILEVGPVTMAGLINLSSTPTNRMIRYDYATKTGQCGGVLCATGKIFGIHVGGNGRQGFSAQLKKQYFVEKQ

Read-outs that look alike come from different tables or passages of the source.

For assay [1], the target named is SARS-Cov-2 3CLpro (Severe acute respiratory syndrome coronavirus 2, UniProt P0DTD1).
The subject of assay [2] is human beta-coronavirus OC43. Kind of assay: OC43 coronavirus antiviral assay in HeLa cells (cytopathic effect, cell-titer-glo). How it is done:
OC43 Coronavirus Assay in HeLa Cells […] HeLa human cervical epithelial cells (ATCC) were used as susceptible host cell lines and were cultured using EMEM media, supplemented with 10% fetal bovine serum (FBS), 1% (v/v) penicillin/streptomycin (P/S), 1% (v/v) HEPES and 1% (v/v) cellgro Glutagro™ supplement (all Corning, Manassas, VA) at 37° C. For the OC43 antiviral assay, 1.5×10^4 HeLa cells per well were plated in 100 μL complete media in white 96-well plates with clear bottoms at 37° C. for up to 24 h to facilitate attachment and allow cells to recover from seeding stresses. Next day, the cell culture medium was removed. Serially diluted compounds in 100 μL assay media (EMEM, 2% FBS, 1% P/S, 1% cellgro Glutagro™ supplement, 1% HEPES) were added to the cells and incubated for 4 H at 37° C. in a humidified 5% CO2 incubator. […] 96-well plates were incubated for 6 (HeLa) days at 33° C.; each plate contains uninfected control wells as well as virus-infected wells that were not treated with compound. Cytotoxicity plates without the addition of OC43 virus were carried out in parallel. At the end of the incubation period, 100 μL cell culture supernatant was replaced with 100 μL cell-titer-glo reagent (Promega, Madison, WI) and incubated for at least 10 min at rt prior to measuring luminescence. Luminescence was measured on a Perkin Elmer (Waltham, MA) Envision plate reader. Antiviral % inhibition was calculated as follows: [(Compound treated cells infected sample)−(no compound infected control)]/[(Uninfected control)−(no compound infected control)]*100; Using GraphPad (San Diego, CA) prism software version 8.3.1, the antiviral dose-response plot was generated as a sigmoidal fit, log(inhibitor) vs response-variable slope (four parameters) model and the EC50 was calculated which is the predicted compound concentration corresponding to a 50% inhibition of the viral cytopathic effect. […]
On the technique in general: Damage to the host cells serves as the signal in cytopathic effect assays.

Assay [3] concerns B.1.1.7 lineage SARS-CoV-2. Kind of assay: B.1.1.7 infection model in A549-Dual ACE2 TMPRSS2 cells (MTS). How it is done: B.1.1.7 Infection Model in A549-Dual ACE2 TMPRSS2 Cells
The A549-dual_ACE2_TMPRSS2 cells (InvivoGen Cat #a549-cov2r) were propagated in the growth medium which was prepared by supplementing DMEM (gibco cat no 41965-039) with 10% v/v heat-inactivated FCS and 10 μg/mL blasticidin (InvivoGen ant-bl-05), 100 μg/mL hygromycin (InvivoGen ant-hg-1), 0.5 μg/mL puromycin (InvivoGen ant-pr-1) and 100 μg/mL zeocin (InvivoGen ant-zn-05) in a humidified 5% CO2 incubator at 37° C. The assay medium was prepared by supplementing DMEM (gibco cat no 41965-039) with 2% v/v heat-inactivated FCS.
The virus isolate used is from the B.1.1.7 lineage (derived from hCoV-19/Belgium/rega-12211513/2020; EPI_ISL_791333,2020-12-21; see Abdelnabi et al., “Comparing infectivity and virulence of emerging SARS-CoV-2 variants in Syrian hamsters” EBioMedicine (2021) June; 68:103403. doi: 10.1016/j.ebiom.2021.103403).
For antiviral testing, cells were seeded in 96-well plates (Falcon) at a density of 15,000 cells per well in assay medium. After overnight growth, cells were treated with the indicated compound concentrations and infected with a MOI of 0.001 TCID50/cell (final volume 200 μL/well in assay medium). On day 4 p.i. differences in cell viability caused by virus-induced CPE or by compound-specific side effects are analyzed using MTS as described previously (PMID: 22575574).
Table 4 indicates related EC50 and CC50 values for the tested compounds ‘A’ indicates an EC50<100 nM, ‘B’ indicates an EC50 of ≥100 nM and <1000 nM, ‘C’ indicates an EC50≥1000 nM and <10000 nM. For CC50, the values are reported in micromolar (μM). ‘A’ indicates a CC50≥10 μM. ‘B’ indicates a CC50≥1 μM and <10 μM.

Assay [4] concerns the target HRV3C (Human rhinovirus 14, UniProt P03303). Conditions: read-out: HRV IC50 (bound), 30 mins preincubation, SAMDI-MS. How it is done: SARS-Cov-2 3CLpro and HRV3C Duplex Assay
Protease assays were performed in 384-well low volume polypropylene microtiter plates at ambient temperature. For the duplex assay, 3CLpro and HRV3C was added using a Multidrop Combi (Thermo Scientific; Waltham, MA) and preincubated for 30 mins with small molecules. The reactions were initiated by the addition of the two peptide substrates. The reactions were incubated for 30 mins and quenched by the addition of 0.5% formic acid (final) with subsequent neutralization using 1% sodium bicarbonate (final). Internal standard peptides were added in 20 mM Hepes pH 8.0 for quantitation of the protease products. For SAMDI-MS analysis, 2 μL of each reaction mixture was transferred using a 384-channel automated liquid handler to SAMDI biochip arrays functionalized with a neutravidin-presenting self-assembled monolayer. The SAMDI arrays were incubated for 1 h in a humidified chamber to allow the specific immobilization of the biotinylated peptide substrates, cleaved products and internal standards. The samples were purified by washing the SAMDI arrays with deionized ultrafiltered water and dried with compressed air. A matrix comprising alpha-cyano cinnamic acid in 80% acetonitrile: 20% aqueous ammonium citrate was applied in an automated format by dispensing 50 nL to each spot in the array. SAMDI-MS was performed using reflector-positive mode on an AB Sciex TOF-TOF 5800 System (AB Sciex, Framingham, MA) with 400 shots/spot analyzed in a random raster sampling. For data analysis, area under the curves (peaks) (AUCs) for the product and internal standard were calculated using the TOF/TOF Series Explorer (AB Sciex), and the amount of product formed was calculated using the equation (AUC product/AUC internal standard). The amount of product generated was calculated using the ratio of product area under the curve (AUC) divided by the AUC of the internal standard. […] Assay robustness was determined by Z-Factor. The IC50s were determined by fitting the curves using a four-parameter equation in Graphpad Prism 8. […]

Setting [5] is: read-out: SARS-Cov-2 IC50 (class), 3CLpro, 30 mins preincubation, SAMDI-MS.
[6] abbreviates: read-out: EC50 (class), 6 days at 33° C.
[7] abbreviates: read-out: A549-dual_ACE2_TMPRSS2 (EC50), MOI 0.001 TCID50/cell, day 4 p.i.

For the molecule `CC(C)(C(NC(=O)C(F)(F)F)C(=O)N1C[C@H]2[C@@H]([C@H]1C(=O)N[C@H](C#N)C[C@@H]1CCNC1=O)[C@H]1C=C[C@@H]2C1)C(F)(F)F` (stereo partly drawn), the half-inhibitory concentration (IC50) in assay [1] (read-out: SARS-Cov-2 IC50 (bound)) and in assay [4] was more than 500 nM in each case. In addition, the EC50 in assay [2] (read-out: EC50 (bound), 6 days at 33° C.) is more than 1000 nM; in assay [3] (read-out: A549-dual_ACE2_TMPRSS2 (EC50), MOI 0.001 TCID50/cell, day 4 p.i., numeric bounds given instead of class symbols) it was more than 1000 nM.

As for `CC(C)(C)[C@H](NC(=O)C(F)(F)F)C(=O)N1C[C@H]2[C@@H]([C@H]1C(=O)N[C@H](C#N)CC1CC3(CC(F)(F)C3)NC1=O)[C@H]1C=C[C@@H]2C1` (single isomer, unassigned) [83a], the IC50 was less than 20 nM in assay [1] (setting [5]) and more than 500 nM in assay [4]. Also, the EC50 in assay [2] (setting [6]) and in assay [3] (setting [7]) was less than 100 nM in each case.

Take `CC(C)(C)[C@H](NC(=O)C(F)(F)F)C(=O)N1C[C@H]2[C@@H]([C@H]1C(=O)N[C@H](C#N)CC1CC3(CC(F)(F)C3)NC1=O)[C@H]1C=C[C@@H]2C1` (single isomer, unassigned) [83b]: the half-maximal inhibitory concentration (IC50) is less than 20 nM in assay [1] (setting [5]) and more than 500 nM in assay [4]. The EC50 in assay [2] (setting [6]) and in assay [3] (setting [7]) was less than 100 nM each time.

As usually defined, the IC50 is the point on the concentration scale where inhibition reaches its midpoint.
